A mixed list of measured activities; the numbers were collected in NIAID ChemDB.

All rows: target-level tests; agent: Mycobacterium tuberculosis

Percent inhibition refers to the dose given; in toxicity tests it is the harm to the cells. ICn is the concentration giving n% inhibition. Blank or dashed fields: not listed here. Neighbouring rows are from separate reports.

smiles,method,measure,strain,dose,target,value
CC(=O)N(O)CCCP(=O)(O)O,-,IC50,-,-,DXR,0.16 µM
COc1ccc2nc3cc(Cl)ccc3c(Nc3cc(CN4CCCC4)c(O)c(CN4CCCC4)c3)c2n1,gel,IC50,-,-,DNA gyrase,25 µM
COC1=C(Br)CC2(OC=C1Br)ON=C(C(=O)NCCCOc1c(Br)cc(C(O)CN)cc1Br)[C@@H]2O,-,IC50,-,-,MYCOTHIOL-S-CONJUGATE AMIDASE,30 µM
CCN(CC)Cc1cc(Nc2ccnc3cc(Cl)ccc23)ccc1O,gel,IC50,-,-,DNA gyrase,>100 µM
COC1=C(OC)C(=O)C(CC/C=C(\C)CCC=C(C)C)=CC1=O,-,inhibition,-,40 µM,NADH dehydrogenase,85%
CN1C(=O)[C@]23CC4=CC=C[C@H](O)[C@H]4N2C(=O)[C@@]1(CO)SS3,-,IC50,-,-,MYCOTHIOL-S-CONJUGATE AMIDASE,50 µM
COc1c(N2CCNC(C)C2)c(F)cc2c(=O)c(C(=O)O)cn(C3CC3)c12,gel,IC50,H37Rv,-,DNA gyrase,3 µg/mL
O=c1onc(-c2ccccc2)o1,broth dilution / fluorescence,IC50,-,-,Proteasome,31.5 µM
Cc1c(F)c(N2CCNC(C)C2)cc2c1c(=O)c(C(=O)O)cn2C1CC1,gel,IC50,H37Rv,-,DNA gyrase,16 µg/mL
CCc1cn([C@H]2C[C@H](O)[C@@H](CO)O2)c(=O)[nH]c1=O,-,IC50,-,-,Thymidine monophosphate kinase,1140 µM
C[N+](C)(CCCN1c2ccccc2Sc2ccc(Cl)cc21)Cc1ccccc1,-,IC50,-,-,NADH dehydrogenase,11 µM
Cc1cn([C@@H]2O[C@H](CO)[C@@H](N=[N+]=[N-])[C@H]2O)c(=O)[nH]c1=O,-,Ki,-,-,Thymidylate kinase,740 µM
CO[C@H]1O[C@@H](n2ccc(=O)[nH]c2=O)C[C@@H]1N=[N+]=[N-],-,IC50,-,-,Thymidine monophosphate kinase,810 µM
NC1CCN(c2nc3c(cc2F)c(=O)c(C(=O)O)cn3-c2ccc(F)cc2F)C1,gel,IC50,H37Rv,-,DNA gyrase,37 µg/mL
CC(C)=CCC/C(C)=C/CC/C(C)=C/CC/C(C)=C/CCC1=CC(=O)c2ccccc2C1=O,-,inhibition,-,40 µM,NADH dehydrogenase,90%
CCc1ccccc1/C=C/c1nsc(=O)o1,broth dilution / fluorescence,IC50,-,-,Proteasome,68.5 µM
O=c1[nH]c(=O)n([C@H]2C[C@H](O)[C@@H](CO)O2)cc1Br,-,IC50,-,-,Thymidine monophosphate kinase,5 µM
Cc1cn([C@@H]2O[C@H](CO)[C@@H](N=[N+]=[N-])[C@@H]2O)c(=O)[nH]c1=O,-,Ki,-,-,Thymidylate kinase,215 µM
O=C(CCN1C(=O)/C(=C/c2ccc(Cl)cc2)SC1=S)NNC(=O)c1cccc2ccccc12,absorbance,IC50,-,-,Pantothenate synthetase,1.17 µM
CC(=O)N[C@H]1C(O)O[C@H](COC(C)=O)[C@@H](OC(C)=O)[C@H]1O[C@@H]1O[C@@H](C)[C@H](OCc2ccccc2)[C@@H](OCc2ccccc2)[C@H]1OCc1ccccc1,-,IC50,-,-,Galactosyltransferase,240 µg/mL
CC1CN(c2cc3c(cc2F)c(=O)c(C(=O)O)cn3-c2ccc(F)cc2F)CCN1,gel,IC50,H37Rv,-,DNA gyrase,40 µg/mL
NNC(=O)c1ccc(S(=O)(=O)NC[C@H]2O[C@@H](n3ccc(=O)[nH]c3=O)[C@H](O)[C@@H]2O)cc1,-,inhibition,-,25 µM,UDP-galactopyranose mutase,12%
NC1[C@H]2CN(c3nc4c(cc3F)c(=O)c(C(=O)O)cn4-c3ccc(F)cc3F)C[C@@H]12,gel,IC50,H37Rv,-,DNA gyrase,15 µg/mL
O=C(CCN1C(=O)/C(=C/c2ccc([N+](=O)[O-])cc2)SC1=S)NNC(=O)c1ccccc1,absorbance,IC50,-,-,Pantothenate synthetase,0.37 µM
NNC(=O)c1ccncc1,gel,IC50,-,-,DNA gyrase,>100 µM
CCCC[C@H](CN(O)C=O)C(=O)N1CCCC1C(=O)Nc1ccccn1,-,IC50,-,-,Peptide deformylase,69.5 µM
O=C(CCN1C(=O)/C(=C/c2ccc3c(c2)OCO3)SC1=S)NNC(=O)c1ccncc1,absorbance,IC50,-,-,Pantothenate synthetase,1.21 µM
Cc1cn([C@@H]2O[C@H](CO)[C@@H](N)[C@H]2F)c(=O)[nH]c1=O,-,Ki,-,-,Thymidylate kinase,190 µM
O=c1oc(CCc2ccccc2)ns1,broth dilution / fluorescence,IC50,-,-,Proteasome,>100 µM
NC1CCN(c2c(F)cc3c(=O)c(C(=O)O)cn(C4CC4)c3c2Cl)C1,gel,IC50,H37Rv,-,DNA gyrase,2.5 µg/mL
C[C@@H](N)[C@H](O)CCCCCCCCCCCCC(=O)CCCCCCCCC[C@@H](O[C@@H]1O[C@H](CO)[C@@H](O)[C@H](O)[C@H]1O)[C@@H](N)CO,-,IC50,-,-,MYCOTHIOL-S-CONJUGATE AMIDASE,10 µM
O=c1oc(/C=C/c2cccnc2)ns1,broth dilution / fluorescence,IC50,-,-,Proteasome,1.35 µM
CO/N=C1\CN(c2nc3c(cc2F)c(=O)c(C(=O)O)cn3C2CC2)CC1CN,gel,IC50,H37Rv,-,DNA gyrase,11 µg/mL
O=c1onc(C(O)c2ccccc2)s1,broth dilution / fluorescence,IC50,-,-,Proteasome,>100 µM
O=C(N/N=C/c1c(Cl)cccc1[N+](=O)[O-])c1ccc(S(=O)(=O)NC[C@H]2O[C@@H](n3ccc(=O)[nH]c3=O)[C@H](O)[C@@H]2O)cc1,-,IC50,-,-,UDP-galactopyranose mutase,>100 µM
[N-]=[N+]=N[C@H]1C[C@H](n2cc(Cl)c(=O)[nH]c2=O)O[C@@H]1CO,-,IC50,-,-,Thymidine monophosphate kinase,16 µM
C[C@@H]1CN(c2c(F)c(N)c3c(=O)c(C(=O)O)cn(C4CC4)c3c2F)C[C@H](C)N1,-,IC50,-,-,Gyrase (V90A mutant),>400 µg/mL
O=C(N/N=C/c1cc([N+](=O)[O-])cc([N+](=O)[O-])c1O)c1ccc(S(=O)(=O)NC[C@H]2O[C@@H](n3ccc(=O)[nH]c3=O)[C@H](O)[C@@H]2O)cc1,-,IC50,-,-,UDP-galactopyranose mutase,6 µM

A second listing of 2 rows from above:

{"smiles": "Cc1cn([C@@H]2O[C@H](CO)[C@@H](N)[C@H]2F)c(=O)[nH]c1=O", "measure": "Ki", "target": "Thymidylate kinase", "value": "190 µM"}
{"smiles": "O=c1[nH]c(=O)n([C@H]2C[C@H](O)[C@@H](CO)O2)cc1Br", "measure": "IC50", "target": "Thymidine monophosphate kinase", "value": "5 µM"}